Data source: PubChem BioAssay AID624099 (ICCB-Longwood, 2012)
Test: 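Host factors E2 relies on to silence an HPV18 LCR reporter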 (primary screen). Cells: human C33A cervical carcinoma cells (HPV-negative) stably expressing BPV1 E2 and an HPV18 LCR luciferase reporter. Reagents: siRNA pool against human genes, 40 nM. Time to read-out: 72 h. Measured: 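HPV18 LCR reporter light per well, converted to plate-wise z-scores that exclude control wells, and averaged over triplicate plates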. Reading the numbers: mean z-score and z-score: higher = stronger reporter signal, weaker E2 silencing. Active means: 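Mean z ≥ 2 together with z ≥ 2 in two or more of the three replicates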.
The whole screen tested about 21,000 reagents; below is an unselected part. Over the whole deposit, 497 (2.4%) are marked active. 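Higher z means weaker E2 silencing; only reporter increases were scored, and knock-downs that hurt cell survival may mask genuine repressor factors.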 The numbers tell different reagents against one gene apart. Reagent sequences are not shown.

gene symbol | reagent no. | mean z-score | z-score, replicate A | z-score, replicate B | z-score, replicate C | call
LOC387883 (retired record) (GeneID 387883) | 1 | 0 | 0.02 | 0 | -0.03 | inactive
IRX1 (GeneID 79192) | 1 | 1.81 | 1.83 | 1.96 | 1.65 | inactive
ZBTB39 (GeneID 9880) | 1 | -0.38 | -0.16 | -0.62 | -0.37 | inactive
PITRM1 (GeneID 10531) | 1 | 0.38 | 0.45 | 0.36 | 0.34 | inactive
OR2D3 (GeneID 120775) | 1 | 0.63 | 0.82 | 0.24 | 0.82 | inactive
ARHGEF1 (GeneID 9138) | 1 | -0.82 | -0.73 | -0.98 | -0.75 | inactive
SELENOP (GeneID 6414) | 1 | 1.25 | 0.98 | 1.49 | 1.27 | inactive
CCDC70 (GeneID 83446) | 1 | 0.68 | 0.8 | 0.73 | 0.52 | inactive
SEL1L3 (GeneID 23231) | 1 | 0.01 | 0.14 | 0.23 | -0.33 | inactive
CYP2A6 (GeneID 1548) | 1 | 0.44 | 0.29 | 0.22 | 0.81 | inactive
BLOC1S5 (GeneID 63915) | 1 | 0.76 | 0.5 | 0.82 | 0.96 | inactive
CARD16 (GeneID 114769) | 1 | 0.31 | 0.1 | 0.56 | 0.27 | inactive
ABCC8 (GeneID 6833) | 1 | -1.41 | -1.32 | -1.62 | -1.3 | inactive
RTN4R (GeneID 65078) | 1 | 1.82 | 1.99 | 1.96 | 1.5 | inactive
RBBP8NL (GeneID 140893) | 1 | -1.14 | -1.39 | -1.08 | -0.95 | inactive
TAF3 (GeneID 83860) | 1 | -2.14 | -2.4 | -2.06 | -1.95 | inactive
HTATIP2 (GeneID 10553) | 1 | -0.09 | -0.14 | 0 | -0.14 | inactive
DHTKD1 (GeneID 55526) | 1 | -0.99 | -0.92 | -1.05 | -0.99 | inactive
TAS2R60 (GeneID 338398) | 1 | 0.54 | 0.46 | 0.77 | 0.39 | inactive
SLF1 (GeneID 84250) | 1 | 0.97 | 0.52 | 1.51 | 0.87 | inactive
SLF1 (GeneID 84250) | 2 | 0.24 | 0.17 | 0.61 | -0.05 | inactive
UBXN2A (GeneID 165324) | 1 | 0.07 | 0.15 | 0.14 | -0.08 | inactive
SCGB1D1 (GeneID 10648) | 1 | -0.21 | -0.26 | 0.16 | -0.54 | inactive

Entries listed so far whose gene name starts with R or r:
gene symbol | reagent no. | mean z-score | z-score, replicate A | z-score, replicate B | z-score, replicate C | call
RTN4R (GeneID 65078) | 1 | 1.82 | 1.99 | 1.96 | 1.5 | inactive
RBBP8NL (GeneID 140893) | 1 | -1.14 | -1.39 | -1.08 | -0.95 | inactive
